Measurements reported in paper PMC3393750, “Small Molecule Inhibitors of the LEDGF Site of Human Immunodeficiency Virus Integrase Identified by Fragment Screening and Structure Based Design” (PLoS ONE, 2012).

Test system: Flag-His6 fusion protein
Experiment: AlphaScreen counter screen
Details: counter screen vs AS
Experimental: For the IN-LEDGF AS assay, compound dilutions and His6-tagged IN (30 nM final concentration) were initially incubated together in 10 µl of reaction buffer (25 mM Tris-Cl pH 7.5, 25 mM NaCl, 5 mM MnCl2, 5 mM MgCl2, 5 mM BME, 50 µg/ml bovine serum albumin and 0.05% (v/v) Tween-20) for 10 min at room temperature in AlphaPlate™-384 SW plates (Perkin-Elmer). Subsequently, 10 µl reaction buffer containing Flag-tagged LEDGF (30 nM final concentration), AS Ni-chelate donor beads (Perkin-Elmer; 5 µg/ml final) and AlphaLISA anti-FLAG acceptor beads (Perkin-Elmer; 5 µg/ml final) were added and protein association allowed to occur for 1 hour in the dark at 30°C before emission from the donor beads was measured using a PHERAstar FS plate-reader (BMG Labtech). Counter screen assays to ensure the compounds were not inhibiting the binding of the His or FLAG tags to the beads or quenching of the signal, were performed under the same reaction conditions except that a Flag-His6 fusion protein was used (20 nM final) instead of individual His6-tagged IN and Flag-tagged LEDGF proteins, and the initial 10 min incubation at room temperature was omitted. The specificity of FLAG-LEDGF for IN binding was confirmed by competing the FLAG-LEDGF with untagged LEDGF. At a 1∶1 molar ratio with FLAG-LEDGF, untagged LEDGF reduced the AS signal by 50%.

C=CCN(Cc1ccccc1C(=O)NC(CCC)c1ccc(OC)cc1)Cc1ccc2c(c1C(=O)O)OCO2 (stereo not shown) [Compound 10]
fold less activity in counter screen than in AS assay: 6 fold
